Data as given in paper PMC4501059, “Responding to the challenge of untreatable gonorrhea: ETX0914, a first-in-class agent with a distinct mechanism-of-action against bacterial Type II topoisomerases” (Scientific Reports, 2015).

Tested on: resistant isolates of S. aureus, S. pneumoniae and N. gonorrhoeae
Assay: MIC versus isolates resistant to ciprofloxacin, the NBTI, novobiocin and ETX0914
Assay type: cell-based

Row | Structure (SMILES) | susceptibility of fluoroquinolone resistant clinical isolates (S. aureus ARC2381, S. pneumoniae ARC2480, N. gonorrhoeae ARC4672, ARC4680, ARC4676) | susceptibility of spontaneous ETX0914 resistant mutants (S. aureus and N. gonorrhoeae GyrB mutants)
1 | C[C@@H]1CN2c3c(cc4c(N5C(=O)OC[C@@H]5C)noc4c3F)CC3(C(=O)NC(=O)NC3=O)[C@H]2[C@H](C)O1 | fully susceptible | –
2 | O=C(O)c1cn(C2CC2)c2cc(N3CCNCC3)c(F)cc2c1=O [Ciprofloxacin 2, Ciprofloxacin, reference compound] | – | fully susceptible
